From patent publication US20240382586A1 (TAKIS S R L, published 2024)
Like-named read-outs stand apart in the source and are kept apart here.

Key:
RBD variant Indian = target: T1, RBD variant Indian (SARS-CoV-2); test: BLI affinity assay on RBD variants
T1 construct: domain: RBD

RBD variant Omicron BA.1 = target: T2, RBD variant Omicron BA.1 (SARS-CoV-2); test: BLI affinity assay on RBD variants
T2 construct: domain: RBD

[1] = target: T3, RBD-6His Californian variant (SARS-CoV-2); test: BLI affinity assay on RBD variants
T3 construct: domain: RBD

RBD variant Delta = target: T4, RBD variant Delta (SARS-CoV-2); test: BLI affinity assay on RBD variants
T4 construct: domain: RBD

[2] = target: T5, RBD-6His South African variant (SARS-CoV-2)
T5 construct: domain: RBD

[3] = target: T6, RBD-6His Brazilian variant (SARS-CoV-2)
T6 construct: domain: RBD

[4] = target: T5, RBD-6His South African variant; test: ELISA, coated RBD-6His
[5] = target: T6, RBD-6His Brazilian variant; test: ELISA, coated RBD-6His
[6] = target: SARS-CoV-2 spike, African variant B.1.351 (on pseudovirus) (SARS-CoV-2); test: cell-based or functional assay
[7] = target: T5, RBD-6His South African variant
[8] = target: T6, RBD-6His Brazilian variant

B1: 3-12B12-F4 (antibody, V domains shown)
VH: EVQLQQSGAELVRPGALVKLSCKASGFNIKDYYMHWVKQRPEQGLEWIGWIDPENGNSIYDPKFQGKASITADTSFNTVNLHLSSLTSEDTAVYYCAPYYYDSTYVGTMDYWGQGTSVTVSS
VL: QIVLTQSPAIMSASPGEKVTMTCSASSSVGYMYWYQQKPGSSPRLLIYDTSNLASGVPVRFGGSGSGTSYSLTISRMEAEDAATYYCQQWSSYPPRTFGGGTKLEIK
- Kd (RBD variant Indian): 1.21 nM
- Kd (RBD variant Omicron BA.1): 1.21 nM
- Kd [1]: 2.25 nM
- Kd (RBD variant Delta): 2.25 nM

B2: 9-8F2-B11 (mouse) (antibody, V domains shown)
VH: EVQLQQSGAELVKPGASVKLSCTASGFNIKETYVHWVKQRPEQGLEWIGRIDPAIGDSEYDPKFQGKATVTADTSSNTAYLQLSRLTSEDTAVYYCARTWGPFFDFWGQGTTLTVSS
VL: DVVMTQTPLSLPVSLGDQASISCRSSQSLVHSHGNTFLHWYLQKPGQSPKVLIYKVSSRFSGVPDRFSGSGAGTDFTLKISRVEAEDLGVYFCSQSTHVPYTFGGGTKLEIK
- Kd [2]: 5.52 nM
- Kd [3]: 1.31 nM
- IC50 [4]: 0.009 µg/mL
- IC50 [5]: 0.0144 µg/mL
- IC50 (ng/ml), pseudovirus neutralisation, African B1.1.351 [6]: 175 ng/mL

B3: humanised 9-8F2-B11 (VH3VL3) (antibody, V domains shown)
VH: QVQLVQSGAEVKKPGASVKVSCKASGFNIKETYVHWVRQAPGQGLEWMGRIDPAIGDSEYAQKFQGRVTMTRDTSISTAYMELSRLRSDDTAVYYCARTWGPFFDFWGQGTLVTVSS
VL: DIVMTQTPLSLSVTPGQPASISCKSSQSLLHSHGNTFLHWYLQKPGQSPQVLIYKVSSRFSGVPDRFSGSGSGTDFTLKISRVEAEDVGVYYCSQSTHVPYTFGQGTKLEIK
notes: also called 9-8F2-B11 humanised
- Kd [7]: 18.2 nM
- Kd [8]: 6.07 nM

B4: 9-2H7-D7 (mouse) (antibody, V domains shown)
VH: EVQLQQSGPELVKPGASVTISCKTSGYTFTEYTMYWVKQSHGKSLEWIGGINPYIGDTSYNQNFKGKATLTVDKSSSTAYMELRSLTSEDSAVYYCARDGYPDYSAMDFWGQGTSVTVSS
VL: DIVMSQSPSSLAVSVGEKVTMNCKSSQNLLYSSNQKNYLAWYQQKPGQSPKLLIYWASTRESGVPDRFTGSGSGTDFTLTISSVKAEDLAVYSCQQYYTYPWTFGGGTKLEIK
- Kd [2]: < 0.001 nM
- Kd [3]: < 0.001 nM
- IC50 [4]: 0.0195 µg/mL
- IC50 [5]: 0.0195 µg/mL
- IC50 (ng/ml), pseudovirus neutralisation, African B1.1.351 [6]: 46 ng/mL

B5: 9-7A4-C2 (mouse) (antibody, V domains shown)
VH: EVQLQQSGPELVKPGASVKISCKTSGYTFTEYTMYWVKQSHGKSLEWIGGINPNNGDSSYIQKFKGKATLTVDESSSTAYMELRSLTSEDSAVYYCARDGYPNSYAMDYWGQGTSVTVSS
VL: DIVMSQSPSSLAVSVGDKVTMSCKSSQSLLYSTNQKNYLAWYQQKPGQSPKLLIYWASTRESGVPDRFTGSGSGTDFTLTIGSVRPEDLAVYYCQQYYSYPWTFGGGTKLEIK
- Kd [2]: 4.51 nM
- Kd [3]: 1.62 nM
- IC50 [4]: 0.0132 µg/mL
- IC50 [5]: 0.056 µg/mL
